# Potato spindle tuber viroid, loop 6: variant abundance in plants

PSTVd intermediate strain, loop 6: wild type UGACCGCGAG, pool pattern UNNNCGNNNG; upper and lower strand joined, each 5' to 3', the first 5 letters being the upper strand, closing pairs included.

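Three N. benthamiana plants were inoculated with the whole mutant pool. Progeny were sequenced from the inoculated region (day 5), the margin of the inoculated leaf (day 10) and systemic leaves (day 12).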

Values are reads per thousand in the sample; higher means more abundant, 0 means not found.
Each site shows the three plants.
"Pool" is the share in the plasmid pool used as inoculum, on the same scale.
The inoculated region was read from the minus strand, the other sites from the plus strand.
IR is the inoculated region, LM the leaf margin, Sys the systemic leaves.

sequence	pool	IR	LM	Sys
UCCUCGAGUG	0.209	0.122 0.0719 0.0553	0 0 0	0 0 0
UCGUCCAGGG	0.0131	0 0 0	0 0 0	0 0 0
UGCGCGGCCG	0.235	0.0521 0.144 0.0738	0 0 0.0232	0 0 0
UAGUCGACUG	0.327	0.104 0.0719 0.0738	0.0276 0 0	0 0 0
UAAACGGACG	0.196	0.591 4.51 5.42	13.5 1.36 0.928	0.180 0.646 0.410
UUUACGUGUG	0.275	0.0869 0.0898 0.0738	0 0 0.0232	0 0 0
UCACCGAGCG	0.222	0.174 0.0359 0.0369	0.0276 0 0.0928	0 0 0
UGCGCUCGAG	0.0131	0.0174 0.0180 0	0 0 0	0 0 0
UGGACGGUGG	0.261	0.139 0.0898 0.111	0 0 0	0 0 0
UGCUCGACGG	0.275	0.0695 0.126 0.0922	0 0 0	0 0 0
UGCUCGAAAG	0.235	0.139 0.0359 0.166	0 0 0	0 0 0
UCGGCGCUGG	0.196	0.104 0.0539 0.0738	0.0276 0 0.0232	0 0 0
UGGACGUCAG	0.248	0.191 0.0719 0.0738	0 0 0	0 0 0
UCCGCGUACG	0.275	0.104 0.126 0.0738	0 0 0	0 0 0
UGCGCGUGCG	0.0915	0.209 0.108 0.0369	0 0 0.0232	0 0 0
UUCGCGUGCG	0.327	0.139 0.216 0.0738	0 0 0	0 0 0
UGCGCGUAAG	0.157	0.0695 0.0719 0.0553	0 0 0	0 0 0
UCUGCGAGAG	0.275	0.0348 0.126 0.0922	0 0 0.0232	0 0 0
UUACCGUCAG	0.209	0.712 0.701 0.719	0.0828 0.0504 0.116	0 0 0
UUUGCGACUG	0.144	0.0521 0.198 0.0369	0 0 0	0 0 0
UUCCCGCAAG	0.209	0.730 0.736 0.664	0.0828 0.0757 0.162	0 0 0
UCAGCGCACG	0.131	0.0869 0.0359 0.0922	0.0276 0 0	0 0 0
UGGGCGGUCG	0.157	0.0695 0.144 0.0553	0 0 0	0 0 0
UCAUCGAGUG	0.261	0.0869 0.162 0.0922	0 0 0	0 0 0
UUCACGGAUG	0.288	0.139 0.0719 0.111	0.0276 0 0	0 0 0
UCGUCGACCG	0.222	0.0695 0.126 0.0553	0 0 0	0 0 0
UCUGCGCUUG	0.301	0.156 0.0539 0.0738	0 0 0	0 0 0
UGUACGCCGG	0.248	0.122 0 0.0922	0 0 0.0464	0 0 0
UCCUCGCCAG	0.209	0.104 0.0539 0.0553	0 0 0	0 0 0
UAUGCGACCG	0.196	0.0348 0.0539 0.129	0 0 0	0 0 0
UACCCGGAGG	0.144	0.104 0.126 0.0738	0 0 0	0 0 0
UCCCCGACGG	0.275	0.122 0.126 0.129	0 0 0.0232	0 0 0
UUGACGUUUG	0.379	0.0695 0.180 0.111	0.0276 0 0	0 0 0.0205
UCUGCGCUCG	0.196	0.156 0.108 0.0553	0 0 0	0 0 0
UAACCGUAGG	0.340	0.122 0.0180 0.111	0.0276 0 0.0232	0 0 0
UGGACGGACG	0.301	0.104 0.108 0.129	0 0 0.0696	0 0 0
UGUCCGCAAG	0.157	0.712 0.844 0.498	0 0.126 0.139	0.0180 0.0202 0
UGACCGUUGG	0.458	0.174 0.216 0.221	0 1.59 0	0.0719 2.08 0.267
UUAACGGCGG	0.183	0.104 0.0359 0.148	0 0 0	0 0 0
UAUACGAUCG	0.314	0.104 0.0719 0.0738	0.0276 0 0.0232	0 0 0
UCAUCGUAUG	0.183	0.104 0.0539 0.0553	0.387 0 0.0232	0 0 0
UGCACGCUGG	0.131	0.104 0.0359 0.0553	0 0 0.0232	0 0 0
UUAGCGUUUG	0.497	0.122 0.0898 0.0738	0.0276 0 0.0232	0 0 0.0205
UGACAGUCAG	0.0131	0 0 0	0 0 0	0 0 0
UGGCCGUGAG	0.222	0.765 0.611 0.682	0.138 0.101 0.0232	0 0.0404 0.0410
UAAUCGGUGG	0.327	0.0695 0.126 0.0738	0.0276 0.0504 0.0232	0 0 0
UUAUCGUGAG	0.418	0.0869 0.126 0.129	0 0 0.0232	0 0 0
UUUUGGGAUG	0.0131	0 0 0	0 0 0	0 0 0
UGUCCGUCGG	0.340	0.139 0.126 0.0922	0 0 0.0232	0 0 0
UGAGCGCUGG	0.183	0.139 0.0898 0.0738	0 0 0.0232	0 0 0
UUGCCGCCGG	0.170	0.0695 0.0539 0.0553	0.0552 0 0	0 0 0
UGACCGAGCG	0.366	0.348 0.234 0.184	0.138 0.782 0.0464	0.0180 0.0404 0.533
UAGUCGAGCG	0.196	0.104 0.0898 0.148	0 0 0.0464	0 0 0
UCUCCGUUGG	0.196	0.122 0.0898 0.111	0 0 0	0 0 0
UGCCCGAUGG	0.209	0.104 0.108 0.0184	0 0 0	0 0 0
UUUGCGCAGG	0.248	0.0869 0.0539 0.148	0 0 0	0 0 0
UAGACGCCCG	0.288	0.104 0.0719 0.0553	0.0276 0 0.0232	0 0 0
UUCUCGCCGG	0.340	0.0348 0.0898 0.0369	0 0.151 0.0232	0 0 0
UAACCGGUCG	0.183	0.0348 0.0359 0.0922	0.0276 0 0.0464	0 0 0
UAAACGGAGG	0.118	0.730 0.557 0.572	0.0828 0.0757 0.0232	0 0 0
UACCCGCAGG	0.170	0.0521 0.162 0.0184	0.0276 0 0	0 0 0
UACACGCUGG	0.170	0.0695 0.108 0.0922	0 0 0	0 0 0
UAUCCGGCGG	0.196	0.0695 0.198 0.0738	0.0276 0 0	0 0 0
UUUUCGGGAG	0.144	0.608 0.557 0.369	0.0276 0.0757 0.0696	0 0.0404 0.0410
UUCGCGUUCG	0.248	0.104 0.0539 0.0553	0.0276 0 0	0 0 0
UAAUCGAUGG	0.248	0.0695 0.198 0.111	0 0 0	0 0 0
UCUACGACAG	0.340	0.104 0.144 0.0184	0.0552 0 0.0232	0 0 0
UUAACGUUUG	0.379	0.104 0.144 0.111	0 0 0	0 0 0
UUAACGAGAG	0.314	0.695 0.503 0.977	0.138 0.202 0.0464	0.0719 0.101 0.0615
UGGGCGCACG	0.196	0.0695 0.0359 0.0922	0.0276 0 0	0 0 0
UAACCGAUUG	0.235	0.104 0.0539 0.166	0.0276 0 0.0232	0 0 0
UGCUCGUCGG	0.183	0.104 0.0898 0.0922	0 0 0	0 0 0
UUCACGCGUG	0.183	0.139 0.126 0.0738	0 0 0.0232	0 0 0
UUUUCGCCCG	0.209	0.156 0.0898 0.0922	0.0552 0 0	0 0 0

The last 3 entries again:

* UGCUCGUCGG (pool 0.183): IR 0.104 0.0898 0.0922; LM 0 0 0; Sys 0 0 0
* UUCACGCGUG (pool 0.183): IR 0.139 0.126 0.0738; LM 0 0 0.0232; Sys 0 0 0
* UUUUCGCCCG (pool 0.209): IR 0.156 0.0898 0.0922; LM 0.0552 0 0; Sys 0 0 0

For reference, wild type rose from 20.7 per thousand in the pool to 195, 198, 203 (inoculated region), 629, 591, 734 (leaf margin) and 942, 870, 868 (systemic leaves).
With 36,220-57,551 reads a sample, very low values are single reads.
The authors trace changes outside the varied positions to PCR and sequencing errors or to mutation in the plant; presence does not show that a variant is infectious alone.

Values reported by Wu et al. 2024 (doi:10.1371/journal.ppat.1012142).